Measured values as given in PMC8018184, “Evaluation of the Pharmacophoric Role of the O–O Bond in Synthetic Antileishmanial Compounds: Comparison between 1,2-Dioxanes and Tetrahydropyrans” (Journal of Medicinal Chemistry, 2020).

Each compound was assayed on L. donovani promastigotes (assay: Confocal microscopy localization of fluorescent compounds). Settings: labeled compound at IC50, 45/50 min; TO-PRO-3 counterstain.
Format: cell-based, Leishmania donovani

SMILES | Cell localization in promastigotes (confocal microscopy)
CCCCC1(CCCC)CO[C@@](C)(OC)[C@@H](CNCCCCNc2c3ccc(Cl)cc3nc3ccc(OC)cc23)C1 (racemic) [3e, N^1-(6-Chloro-2-methoxyacridin-9-yl)-N^4-((5,5-dibutyl-2-methoxy-2-methyltetrahydro-2H-pyran-3-yl)methyl)butane-1,4-diamine] | in the parasite cytoplasm and in the kinetoplast but not in the nucleus
CCCCC1(CCCC)C[C@H](CNCCCCNc2c3ccc(Cl)cc3nc3ccc(OC)cc23)[C@](C)(OC)OO1 [2e, N^1-(6-Chloro-2-methoxyacridin-9-yl)-N^4-((6,6-dibutyl-3-methoxy-3-methyl-1,2-dioxan-4-yl)methyl)butane-1,4-diamine] | colocalization of green and blue fluorescence not only in the kinetoplast but also in the nucleus
CCCCC1(CCCC)C[C@H](CNCCCCNc2ccc([N+](=O)[O-])c3nonc23)[C@](C)(OC)OO1 [2f, N^1-((6,6-Dibutyl-3-methoxy-3-methyl-1,2-dioxan-4-yl)methyl)-N^4-(7-nitrobenzo[c][1,2,5]oxadiazol-4-yl)butane-1,4-diamine] | spread throughout the parasite cytoplasm and it was able to enter the kinetoplast but not the nucleus
